Data as given in PMC3842668, “Dual-acting stapled peptides target both HIV-1 entry and assembly” (Retrovirology, 2013).
Where a SMILES comes first, the peptide text is derived from it. Bridges are numbered along the chain shown (N, C = ends). [ ]: non-standard residue; d: D form. R8 = C=CCCCCCC[C@@](C)(N)C(=O)O; S5 = C=CCCC[C@](C)(N)C(=O)O

What was measured:
CA CTD (W184A/M185A) = target: T1, CA CTD (W184A/M185A) (Human immunodeficiency virus type 1 group M subtype B, UniProt P12493, M317A/W316A); format: binding, HIV-1; settings: ITC
T1 construct: The C-CA (CTD) DNA fragment was subcloned into the pET14b vector; made in house

[1] = target: monomeric HIV-1 CA, p24-W184A/M185A (Human immunodeficiency virus type 1 group M subtype B, UniProt P12493, M317A/W316A); settings: 35°C, 50 mM NaOAc pH 5.5, 5 mM DTT, 10% D2O

| SMILES | fold lower affinity towards the CA CTD compared to NYAD-1, -66 and -67 (CA CTD (W184A/M185A)) | NMR spectral changes upon titration (in words) [1] |
| --- | --- | --- |
| CC[C@H](C)[C@H](NC(C)=O)C(=O)N[C@@H](CO)C(=O)N[C@@H](Cc1ccccc1)C(=O)N[C@]1(C)CCCCCCC=CCCC[C@@](C)(C(=O)N[C@@H](CCC(=O)O)C(=O)N[C@@H](CO)C(=O)NCC(=O)N[C@@H](CO)C(N)=O)NC(=O)[C@H](Cc2ccc(O)cc2)NC(=O)[C@H](Cc2ccc(O)cc2)NC(=O)[C@H](CC(=O)O)NC(=O)[C@H](CC(C)C)NC(=O)[C@H](CC(C)C)NC(=O)[C@H](CCC(=O)O)NC1=O [NYAD-36] (Ac-ISF[R8]ELLDYY[S5]ESGS-NH2; staple 4-11) | 3-5 fold | significant NMR spectral changes consistent with tight binding |
| CC[C@H](C)[C@H](NC(C)=O)C(=O)N[C@@H](CO)C(=O)N[C@@H](Cc1ccccc1)C(=O)N[C@]1(C)CCCCCCC=CCCC[C@@](C)(C(=O)N[C@@H](CCC(=O)O)C(=O)N[C@@H](CC(=O)O)C(N)=O)NC(=O)[C@H](Cc2ccc(O)cc2)NC(=O)[C@H](Cc2ccc(O)cc2)NC(=O)[C@H](CC(=O)O)NC(=O)[C@H](CC(C)C)NC(=O)[C@H](CC(C)C)NC(=O)[C@H](CCC(=O)O)NC1=O [NYAD-66] (Ac-ISF[R8]ELLDYY[S5]ED-NH2; staple 4-11) |  | significant NMR spectral changes consistent with tight binding |
| CC[C@H](C)[C@H](NC(C)=O)C(=O)N[C@@H](CO)C(=O)N[C@@H](Cc1ccccc1)C(=O)N[C@]1(C)CCCCCCC=CCCC[C@@](C)(C(=O)N[C@@H](CCC(=O)O)C(=O)N[C@@H](CC(=O)O)C(=O)N[C@@H](CCC(=O)O)C(N)=O)NC(=O)[C@H](Cc2ccc(O)cc2)NC(=O)[C@H](C)NC(=O)[C@H](CCC(N)=O)NC(=O)[C@H](CC(C)C)NC(=O)[C@H](Cc2c[nH]c3ccccc23)NC(=O)[C@H](CCC(=O)O)NC1=O [NYAD-67] (Ac-ISF[R8]EWLQAY[S5]EDE-NH2; staple 4-11) |  | significant NMR spectral changes consistent with tight binding |
